Anti-infective test results gathered from many reports (values: NIAID ChemDB through PubChem).

Common to all: enzyme or target tests; agent: HIV-1; target: Protease

Fold resistance: result on the changed form divided by that on wild type. Blank or dashed fields: not listed here. Rows are shuffled and stem from different studies. Inhibition is in % at the dose shown (toxicity tests: loss of growth or viability). ICn is the concentration giving n% inhibition.

CC(C)[C@H](NS(=O)(=O)N(C)Cc1ccccn1)C(=O)N[C@@H](Cc1ccccc1)[C@H](O)[C@H](O)[C@H](Cc1ccccc1)NC(=O)[C@@H](NS(=O)(=O)N(C)Cc1ccccn1)C(C)C ; dose: 0.1 µM ; read-out: inhibition ; read by: fluorescence ; result: 60%
CC(C)[C@H](NC(=O)N(C)Cc1ccccn1)C(=O)N[C@@H](Cc1ccccc1)[C@@H](O)[C@H](O)[C@H](Cc1ccccc1)NC(=O)[C@@H](NC(=O)N(C)Cc1ccccn1)C(C)C ; read-out: fold resistance ; read by: fluorescence ; mutations: PR-R8Q ; result: 23
O=C(N[C@@H](Cc1ccccc1)[C@H](Cc1ccccc1)n1cc(CN2CCN(c3ccncc3)CC2)nn1)OC1CCCC1 ; read-out: IC50 ; read by: fluorescence ; result: >5 µM
CC(C)CC(NC(=O)[C@@H](NC(=O)OCc1ccccc1)C(C)C)C(=O)C(F)(F)C(NC(=O)[C@@H](NC(=O)OCc1ccccc1)C(C)C)C(C)C ; read-out: IC50 ; read by: fluorescence ; result: <0.001 µM
Cc1cc(SC2=C(O)C[C@@](CCc3ccc(N)cc3)(C(C)C)OC2=O)c(C(C)(C)C)cc1CO ; read-out: fold resistance ; read by: HPLC / absorbance ; mutations: PR-V32I ; result: 1.9
O=S1(=O)N(Cc2cccc(I)c2)[C@H](COc2ccccc2)[C@H](O)[C@@H](O)[C@@H](COc2ccccc2)N1Cc1cccc(I)c1 ; read-out: fold resistance ; mutations: PR-V82A ; result: 258
CC(C)[C@H](NC(=O)c1ccccn1)C(=O)N[C@@H](Cc1ccccc1)[C@@H](O)[C@H](O)[C@H](Cc1ccccc1)NC(=O)[C@@H](NC(=O)c1ccccn1)C(C)C ; read-out: IC50 ; read by: fluorescence ; result: <0.1 µM
Cc1ccc(Cl)cc1N1CCN(Cc2cn([C@@H](Cc3ccccc3)[C@H](Cc3ccccc3)NC(=O)c3ccco3)nn2)CC1 ; read-out: IC50 ; read by: fluorescence ; result: >5 µM
CC(C)(C)OC(=O)N[C@@H](Cc1ccccc1)C(O)C(O)[C@H](Cc1ccccc1)NC(=O)OC(C)(C)C ; dose: 0.01 µM ; read-out: inhibition ; read by: fluorescence ; result: 40%
Cc1ccccc1N1CCN(Cc2cn([C@@H](Cc3ccccc3)[C@H](Cc3ccccc3)NC(=O)OC3CCCC3)nn2)CC1 ; read-out: IC50 ; read by: fluorescence ; result: <5 µM
O=S1(=O)N(Cc2ccc(-c3cccs3)cc2)[C@H](COc2ccccc2)[C@H](O)[C@@H](O)[C@@H](COc2ccccc2)N1Cc1ccc(-c2cccs2)cc1 ; read-out: fold resistance ; mutations: PR-G48V L90M ; result: 19.6
Cc1ccc(Cl)cc1N1CCN(Cc2cn([C@@H](Cc3ccccc3)[C@H](Cc3ccccc3)NC(=O)OCc3ccccc3)nn2)CC1 ; read-out: IC50 ; read by: fluorescence ; result: >5 µM
CC(C)[C@H](NC(=O)OCc1ccccc1)C(=O)NC(Cc1ccccc1)C(O)C(Cc1ccccc1)NC(=O)OC(C)(C)C ; dose: 0.01 µM ; read-out: inhibition ; read by: fluorescence ; result: 37%
Cc1cc(SC2=C(O)C[C@@](CCc3ccc(O)cc3)(C(C)C)OC2=O)c(C(C)(C)C)cc1CO ; read-out: fold resistance ; read by: HPLC / absorbance ; mutations: PR-V82F I84V ; result: <3
O=C(N[C@@H](Cc1ccccc1)[C@H](Cc1ccccc1)n1cc(CN2CCN(c3ccc(Cl)cc3)CC2)nn1)OC1CCCC1 ; read-out: IC50 ; read by: fluorescence ; result: <5 µM
CC(C)[C@H](NC(=O)OCc1ccccn1)C(=O)NC(Cc1ccccc1)C(O)C(F)(F)C(N)Cc1ccccc1 ; read-out: IC50 ; read by: fluorescence ; result: ~0.1 µM
CNC(=O)CN1[C@H](COc2ccccc2)[C@H](O)[C@@H](O)[C@@H](COc2ccccc2)N(CC(=O)NC)S1(=O)=O ; read-out: fold resistance ; mutations: PR-G48V L90M ; result: 0.96
CC(C)CN(C[C@@H](O)[C@H](Cc1ccccc1)NC(=O)[C@H](CC(N)=O)NC(=O)c1ccc2ccccc2n1)C(=O)NC(C)(C)C ; read-out: fold resistance ; read by: HPLC ; mutations: PR-V82A ; result: 1
O=S1(=O)N(Cc2ccc(CO)cc2)[C@H](COc2ccccc2)[C@H](O)[C@@H](O)[C@@H](COc2ccccc2)N1Cc1ccc(CO)cc1 ; read-out: fold resistance ; mutations: PR-G48V L90M ; result: 2.65
CC(C)[C@H](NC(=O)OCc1ccccc1)C(=O)NC(Cc1ccccc1)C(O)C(Cc1ccccc1)NC(=O)[C@@H](NC(=O)OCc1ccccc1)C(C)C ; dose: 0.01 µM ; read-out: inhibition ; read by: fluorescence ; result: 75%
CNC(=O)[C@@H](NC(=O)[C@H](OCc1ccccc1)[C@H](O)[C@@H](O)[C@@H](OCc1ccccc1)C(=O)N[C@H]1c2ccccc2C[C@H]1O)C(C)C ; read-out: fold resistance ; mutations: PR-V82A ; result: 2.78
CC(C)[C@H](NC(=O)N(C)Cc1ccccn1)C(=O)N[C@@H](Cc1ccccc1)[C@H](O)[C@H](O)[C@H](Cc1ccccc1)NC(=O)[C@@H](NC(=O)N(C)Cc1ccccn1)C(C)C ; read-out: fold resistance ; read by: HPLC ; mutations: PR-A71T V82A ; result: 4
CC(C)[C@H](NC(=O)N(C)Cc1ccccn1)C(=O)N[C@@H](Cc1ccccc1)[C@H](O)[C@H](O)[C@H](Cc1ccccc1)NC(=O)[C@@H](NC(=O)N(C)Cc1ccccn1)C(C)C ; read-out: fold resistance ; read by: fluorescence ; mutations: PR-M46I ; result: 1.43

The last 2 rows once more:

structure	dose	read-out	read by	mutations	result
CC(C)[C@H](NC(=O)N(C)Cc1ccccn1)C(=O)N[C@@H](Cc1ccccc1)[C@H](O)[C@H](O)[C@H](Cc1ccccc1)NC(=O)[C@@H](NC(=O)N(C)Cc1ccccn1)C(C)C	-	fold resistance	HPLC	PR-A71T V82A	4
CC(C)[C@H](NC(=O)N(C)Cc1ccccn1)C(=O)N[C@@H](Cc1ccccc1)[C@H](O)[C@H](O)[C@H](Cc1ccccc1)NC(=O)[C@@H](NC(=O)N(C)Cc1ccccn1)C(C)C	-	fold resistance	fluorescence	PR-M46I	1.43